Anti-infective test results gathered from many reports (values: NIAID ChemDB through PubChem).

All rows: growth or infection tests

Rows are shuffled and stem from different studies.

CCCCCCCCCCCCCCCCCCCCNC(=O)NC(CCC(=O)O)(CCC(=O)O)CCC(=O)O ; species: Mycobacterium chelonae ; strain or isolate: EO-P-1 ; measure: MIC ; result: 36 µg/mL
O=c1oc2ccc(F)cc2c(=S)n1-c1ccc(F)cc1 ; conditions: 21 d ; species: Mycobacterium kansasii ; strain or isolate: My 235/80 ; measure: MIC ; result: 16 µM
CC[C@H]1OC(=O)[C@H](C)[C@@H](OC2C[C@@](C)(OC)[C@@H](OC(=O)CCCCc3ccccc3)[C@H](C)O2)[C@H](C)[C@@H](O[C@@H]2O[C@H](C)C[C@H](N(C)C)[C@H]2O)C(C)(O)C[C@@H](C)/C(=N\OCCCOc2ccccc2)[C@H](C)[C@@H](O)[C@]1(C)O ; species: Mycobacterium avium complex ; strain or isolate: 20096 (clarithromycin-resistant) ; measure: MIC ; result: 3.13 µg/mL
S=c1oc2ccc(Br)cc2c(=S)n1-c1ccc(Cl)c(Cl)c1 ; conditions: 21 d ; species: Mycobacterium kansasii ; strain or isolate: 6509/96 ; measure: MIC ; result: 4 µM
CC[C@H]1OC(=O)[C@H](C)[C@@H](O[C@H]2C[C@@](C)(OC)[C@@H](OC(C)=O)[C@H](C)O2)[C@H](C)[C@@H](O[C@@H]2O[C@H](C)C[C@H](N(C)C)[C@H]2OC(=O)NNCc2ccc(OC)cc2)C(C)(O)C[C@@H](C)/C(=N\OCCCC2CCCCC2)[C@H](C)[C@@H](O)[C@]1(C)O ; species: Mycobacterium avium complex ; strain or isolate: 20092 (clarithromycin-resistant) ; measure: MIC ; result: 0.78 µg/mL
CCCCCCCCCCCCCCCCCCCCCOC(=O)NC(CCC(=O)O)(CCC(=O)O)CCC(=O)O ; species: Mycobacterium abscessus ; strain or isolate: AAy-P-1 ; measure: MIC ; result: 4.5 µg/mL
Cc1nc2ccc(Cl)cn2c1C(=O)NCc1ccc(N(C)C)cc1 ; species: Mycobacterium ulcerans ; read by: fluorescence ; measure: MIC50 ; result: 0.01–0.1 µg/mL
CC(C)CCC[C@@H](C)[C@H]1CC[C@H]2[C@@H]3CC[C@H]4C[C@H](NC(=O)NC(CCC(=O)O)(CCC(=O)O)CCC(=O)O)CC[C@]4(C)[C@H]3CC[C@]12C ; species: Mycobacterium chelonae ; strain or isolate: EO-P-1 ; measure: MIC ; result: 34 µg/mL
CCCNNC(=O)O[C@H]1[C@H](O[C@@H]2[C@@H](C)[C@H](O[C@H]3C[C@@](C)(OC)[C@@H](OC(C)=O)[C@H](C)O3)[C@@H](C)C(=O)O[C@H](CC)[C@@](C)(O)[C@H](O)[C@@H](C)/C(=N/OCCCC3CCCCC3)[C@H](C)CC2(C)O)O[C@H](C)C[C@@H]1N(C)C ; species: Mycobacterium avium complex ; strain or isolate: 20039 (clarithromycin-susceptible) ; measure: MIC ; result: 0.78 µg/mL
Cc1ccc2ncc(C(=O)NCc3ccc(N(C)C)cc3)n2c1 ; species: Mycobacterium ulcerans ; read by: fluorescence ; measure: MIC50 ; result: 1–10 µg/mL
Cc1ccc2oc(=O)n(-c3ccccc3)c(=S)c2c1 ; conditions: 21 d ; species: Mycobacterium kansasii ; strain or isolate: My 235/80 ; measure: MIC ; result: 4 µM
CCCO/N=C1\[C@H](C)CC(C)(O)[C@H](O[C@@H]2O[C@H](C)C[C@H](N(C)C)[C@H]2O)[C@@H](C)[C@H](O[C@H]2C[C@@](C)(OC)[C@@H](OC(C)=O)[C@H](C)O2)[C@@H](C)C(=O)O[C@H](CC)[C@@](C)(O)[C@H](O)[C@H]1C ; species: Mycobacterium avium complex ; strain or isolate: 20096 (clarithromycin-resistant) ; measure: MIC ; result: >50 µg/mL
CCCCCCCCCCCCC(CCCCCCCCCCCC)NC(=O)NC(CCC(=O)O)(CCC(=O)O)CCC(=O)O ; species: Mycobacterium chelonae ; strain or isolate: EO-P-1 ; measure: MIC ; result: 72 µg/mL
O=c1oc2ccc(Cl)cc2c(=S)n1-c1ccc(F)cc1 ; conditions: 14 d ; species: Mycobacterium kansasii ; strain or isolate: 6509/96 ; measure: MIC ; result: 16 µM
CO[C@H]1/C=C/O[C@@]2(C)Oc3c(C)c(O)c4c(O)c(c5c(c4c3C2=O)NC2(CCN(CC(C)C)CC2)N=5)=NC(=O)/C(C)=C\C=C\[C@H](C)[C@H](O)[C@@H](C)[C@@H](O)[C@@H](C)[C@H](OC(C)=O)[C@@H]1C ; species: Mycobacterium avium intracellulare ; strain or isolate: 420 ; measure: MIC ; result: 0.5 µg/mL
CC1(C)N=C(N)N=C(N)N1OCCCOc1cc(Cl)c(Cl)cc1Cl ; species: Mycobacterium avium complex ; strain or isolate: CFR ; measure: MIC ; result: 1 µg/mL
CC[C@H]1OC(=O)[C@H](C)[C@@H](OC2C[C@@](C)(OC)[C@@H](O)[C@H](C)O2)[C@H](C)[C@@H](O[C@@H]2O[C@H](C)C[C@H](N(C)C)[C@H]2O)C(C)(O)C[C@@H](C)/C(=N\OCCCC2CCCCC2)[C@H](C)[C@@H](O)[C@]1(C)O ; species: Mycobacterium avium complex ; strain or isolate: 20039 (clarithromycin-susceptible) ; measure: MIC ; result: 3.13 µg/mL
Cc1nc2ccccn2c1C(=O)NCC1CCCCCC1 ; species: Mycobacterium ulcerans ; read by: fluorescence ; measure: MIC50 ; result: 1–10 µg/mL
CCCCCCCCCCCCCCO/N=C1\[C@H](C)CC(C)(O)[C@H](O[C@@H]2O[C@H](C)C[C@H](N(C)C)[C@H]2O)[C@@H](C)[C@H](OC2C[C@@](C)(OC)[C@@H](O)[C@H](C)O2)[C@@H](C)C(=O)O[C@H](CC)[C@@](C)(O)[C@H](O)[C@H]1C ; species: Mycobacterium avium complex ; strain or isolate: 20092 (clarithromycin-resistant) ; measure: MIC ; result: >50 µg/mL
CCCCCCCCCCCCCCCCCOC(=O)NC(CCC(=O)O)(CCC(=O)O)CCC(=O)O ; species: Mycobacterium marinum ; strain or isolate: ATCC 927 ; measure: MIC ; result: 216 µg/mL
CC[C@H]1OC(=O)[C@H](C)[C@@H](O[C@H]2C[C@@](C)(OC)[C@@H](OC(C)=O)[C@H](C)O2)[C@H](C)[C@@H](O[C@@H]2O[C@H](C)C[C@H](N(C)C)[C@H]2O)C(C)(O)C[C@@H](C)/C(=N\OCCCCc2ccccc2)[C@H](C)[C@@H](O)[C@]1(C)O ; species: Mycobacterium avium complex ; strain or isolate: 20039 (clarithromycin-susceptible) ; measure: MIC ; result: 0.78 µg/mL
Cc1ccc2oc(=S)n(-c3ccc(Cl)c(Cl)c3)c(=S)c2c1 ; conditions: 21 d ; species: Mycobacterium kansasii ; strain or isolate: 6509/96 ; measure: MIC ; result: 8 µM
O=C(NCc1ccc(-c2cccnc2)cc1)c1c(Cl)nc2ccccn12 ; species: Mycobacterium ulcerans ; read by: fluorescence ; measure: MIC50 ; result: 1–10 µg/mL
CCCCCCCCCCCCCCCCCCCCCCNC(=O)NC(CCC(=O)O)(CCC(=O)O)CCC(=O)O ; species: Mycobacterium abscessus ; strain or isolate: AAy-P-1 ; measure: MIC ; result: 72 µg/mL
CC[C@H]1OC(=O)[C@H](C)[C@@H](OC2C[C@@](C)(OC)[C@@H](O)[C@H](C)O2)[C@H](C)[C@@H](O[C@@H]2O[C@H](C)C[C@H](N(C)C)[C@H]2O)C(C)(O)C[C@@H](C)/C(=N\OCCc2ccccc2)[C@H](C)[C@@H](O)[C@]1(C)O ; species: Mycobacterium avium intracellulare ; strain or isolate: 20066 (clarithromycin-susceptible) ; measure: MIC ; result: 1.56 µg/mL
Cc1ccn2c(C(=O)NCC3CCCO3)c(C)nc2c1 ; species: Mycobacterium ulcerans ; read by: fluorescence ; measure: MIC50 ; result: >10 µg/mL
Cc1ccc2oc(=S)n(-c3ccc(Br)cc3)c(=S)c2c1 ; conditions: 21 d ; species: Mycobacterium kansasii ; strain or isolate: 6509/96 ; measure: MIC ; result: 4 µM
CCCCCCCCCCCCC(=O)O[C@H]1[C@H](C)OC(O[C@H]2[C@H](C)[C@@H](O[C@@H]3O[C@H](C)C[C@H](N(C)C)[C@H]3O)C(C)(O)C[C@@H](C)/C(=N\OCCCOc3ccccc3)[C@H](C)[C@@H](O)[C@](C)(O)[C@@H](CC)OC(=O)[C@@H]2C)C[C@@]1(C)OC ; species: Mycobacterium avium complex ; strain or isolate: 20092 (clarithromycin-resistant) ; measure: MIC ; result: >50 µg/mL

The last 2 rows once more:

SMILES,conditions,species,read by,strain or isolate,measure,result
Cc1ccc2oc(=S)n(-c3ccc(Br)cc3)c(=S)c2c1,21 d,Mycobacterium kansasii,-,6509/96,MIC,4 µM
CCCCCCCCCCCCC(=O)O[C@H]1[C@H](C)OC(O[C@H]2[C@H](C)[C@@H](O[C@@H]3O[C@H](C)C[C@H](N(C)C)[C@H]3O)C(C)(O)C[C@@H](C)/C(=N\OCCCOc3ccccc3)[C@H](C)[C@@H](O)[C@](C)(O)[C@@H](CC)OC(=O)[C@@H]2C)C[C@@]1(C)OC,-,Mycobacterium avium complex,-,20092 (clarithromycin-resistant),MIC,>50 µg/mL

An empty or dashed field is not shown. A number after MIC or MFC names an inhibition level or a share of isolates. a–b is a range or a potency band.